Measured values from several laboratories, pooled; numbers as filed in NIAID ChemDB.

Common to all: cytotoxicity tests; cells: VERO; read-out: CC50

CCn is the concentration with n% toxicity to the cells.

CCCc1nc2n(n1)C(c1ccccc1)CC(=O)N2 ; result: >50 µg/mL
FC(F)(F)c1ccccc1Cn1ccc2nc(-c3ccccc3)nc-2c1 ; result: >100 µg/mL
NC1CCCON2CCc3c([nH]c4ccccc34)[C@H]12 ; result: >400 µg/mL
COc1cc(Cc2cnc(/N=C3\C(=O)N(CN4CCN(c5c(F)cc6c(=O)c(C(=O)O)cn(C7CC7)c6c5OC)CC4C)c4ccc(Cl)cc43)nc2N)cc(OC)c1OC ; result: >10 µg/mL
Cc1cn([C@@H]2O[C@H](CO)[C@@H](CO)[C@@H]2F)c(=O)[nH]c1=O ; result: ≥100 µM
Clc1ccc(CNc2cccc(N3CCSCC3)c2)cc1 ; result: 8 µg/mL
CCn1cc(C(=O)O)c(=O)c2cc(F)c(N3CCN(CNC(=O)c4cnccn4)CC3)c(F)c21 ; result: >62.5 µg/mL
CCn1cc(C(=O)O)c(=O)c2cc(F)c(N3CCN(CN4C(=O)/C(=N\c5ncc(Cc6cc(OC)c(OC)c(OC)c6)c(N)n5)c5cc(C)ccc54)C(C)C3)c(F)c21 ; result: >10 µg/mL
c1ccc(-c2ccc(CNc3cccc(-n4ccnc4)c3)cc2)cc1 ; result: 64 µg/mL
CCn1cc(C(=O)O)c(=O)c2cc(F)c(N3CCN(Cc4cccc(/C(C)=N/NC(=O)c5ccncc5)c4O)C(C)C3)c(F)c21 ; result: >10.1 µM
C[C@H]1C[C@H]2O[C@@H]2C[C@H](O)/C=C/C(=O)Cc2c(Cl)c(O)cc(O)c2C(=O)O1 ; result: 80 µM
O=C1CC(c2ccc([N+](=O)[O-])cc2)n2nc(-c3cccnc3)nc2N1 ; result: >50 µg/mL
C[C@H]1C/C=C/C(O)C/C=C/C(=O)Cc2c(Cl)c(O)cc(O)c2C(=O)O1 ; result: 36 µM
c1ccc(-c2ccc(CNc3ccccc3-n3ccnc3)cc2)cc1 ; result: 8 µg/mL
O=c1[nH]c(=O)n([C@@H]2O[C@H](CO)[C@@H](O)[C@@H]2F)cc1I ; result: 10.3 µM
COc1cc(Cc2cnc(/N=C3\C(=O)N(CN4CCN(c5cc6c(cc5F)c(=O)c(C(=O)O)cn6C5CC5)CC4)c4ccc(Br)cc43)nc2N)cc(OC)c1OC ; result: >10 µg/mL
Nc1ncnc2c1ncn2C1CC(CO)[C@@H](O)[C@H]1O ; result: 4 µg/mL
CC(=O)O[C@@H]1C[C@H](O)C23COC(O)[C@]1(C)C2C[C@@H](O)C1(C)C3C(=O)[C@H](OC(C)=O)[C@@]2(C)[C@H](c3ccoc3)CC3OC312 ; result: 400 µg/mL
CN1CCN(C(=O)c2ccc3c(NCCc4c[nH]c5ccccc45)c4ccccc4nc3c2)CC1 ; result: 50 µM
C[C@H]1C[C@H]2O[C@@H]2CC/C=C/C(=O)Cc2c(Cl)c(O)cc(O)c2C(=O)O1 ; result: 16 µM
CCn1cc(C(=O)O)c(=O)c2cc(F)c(N3CCN(CN4C(=O)/C(=N\c5ncc(Cc6cc(OC)c(OC)c(OC)c6)c(N)n5)c5cc(F)ccc54)CC3)cc21 ; result: >10 µg/mL
O=c1[nH]c(=S)cnn1[C@@H]1O[C@H](CO)C(O)C1O ; result: 233 µg/mL
O=c1c(-c2ccccc2)nn(CCCCO)c2ncnn12 ; result: 1130 µM
Cc1cn([C@H]2C[C@H](N=[N+]=[N-])[C@@H](CO)S2)c(=O)[nH]c1=O ; result: >100 µM
CCc1nc2ccc(Cl)cn2c1C(=O)NCc1ccc2c(c1)CCO2 ; result: >32 µM
COc1c(N2CCN(CNC(=O)c3cnccn3)CC2)c(F)cc2c(=O)c(C(=O)O)cn(C3CC3)c12 ; result: >62.5 µg/mL
NC1CSCON2CCc3c([nH]c4ccccc34)[C@H]12 ; result: ≥4 µg/mL
O=C(Nc1cccc(N2CCSCC2)c1)c1ccc(-c2ccccc2)cc1 ; result: 8 µg/mL
Cc1ccn2c(C(=O)NCc3ccc(N4CCC(Oc5cccc(C(F)(F)F)c5)CC4)c(F)c3)c(C)nc2c1 ; result: >32 µM
CN1CCN(C(=O)c2ccc3nc4ccccc4c(NCCc4c[nH]c5ccccc45)c3c2)CC1 ; result: 45 µM
CCCCCc1nc2n(n1)C(c1ccc([N+](=O)[O-])cc1)CC(=O)N2 ; result: <50 µg/mL
Cc1cn([C@@H]2C[C@H](O)[C@@H](CO)S2)c(=O)[nH]c1=O ; result: >100 µM
Cc1nc2n(CCCCO)nc(-c3ccccc3)c(=O)n2n1 ; result: >980 µM
O=c1cnn([C@@H]2O[C@H](COP(=O)(O)O)[C@@H](O)[C@H]2O)c(=O)[nH]1 ; result: 31 µg/mL
COc1ccc(C)cc1NCc1cnc2nc(N)nc(N)c2c1C ; result: 471 µg/mL
OC[C@H]1O[C@@H](n2ncc(=S)[nH]c2=S)C(O)C1O ; result: 464 µg/mL
Cc1nc2ccc(F)cn2c1C(=O)NCc1ccc2c(c1)CCO2 ; result: >32 µM
Nc1ncnc2c1ncn2[C@@H]1C[C@H](CO)[C@@H](O)[C@@H]1O ; result: 60 µM
O=C(N/C(C(=O)N1CCCCC1)=C(/Cl)c1ccccc1)c1ccccc1 ; result: >81 µM
COc1cc(Cc2cnc(/N=C3\C(=O)N(CN4CCN(c5cc6c(cc5F)c(=O)c(C(=O)O)cn6C5CC5)CC4)c4ccc(F)cc43)nc2N)cc(OC)c1OC ; result: >62.5 µg/mL
CCOC(=O)Nc1cc(N[C@@H](C)[C@H](O)c2ccccc2)c(N)c(N)n1 ; result: >200 µg/mL
Clc1ccc(CNc2ccccc2N2CCSCC2)cc1 ; result: 8 µg/mL
Fc1ccc(Cn2ccc3nc(-c4c(F)ccc(F)c4F)nc-3c2)c(F)c1 ; result: >100 µg/mL
CSc1nc2n(CCCCO)nc(-c3ccccc3)c(=O)n2n1 ; result: >500 µM
CCn1cc(C(=O)O)c(=O)c2cc(F)c(N3CCN(CN4C(=O)/C(=N\c5ncc(Cc6cc(OC)c(OC)c(OC)c6)c(N)n5)c5cc(Cl)ccc54)C(C)C3)c(F)c21 ; result: >10 µg/mL
O=C(NCN1CCN(c2ccc(F)cc2)CC1)c1cnccn1 ; result: >62.5 µg/mL
Fc1cccc(F)c1Cn1ccc2nc(-c3c(F)cccc3F)nc-2c1 ; result: >100 µg/mL
CCN(CC)Cc1cccc(/C(C)=N/NC(=O)c2ccncc2)c1O ; result: >18.35 µM
O=C(O)c1c(=O)c2cc([N+](=O)[O-])c(N3CCC(O)(c4ccc(Cl)cc4)CC3)nc2n2c1sc1ccccc12 ; result: 113 µM
Cc1ccn2c(C(=O)NCc3ccnc(N4CCC(c5ccc(C(F)(F)F)cc5)CC4)c3)c(C)nc2c1 ; result: >32 µM
Cc1nc2n(C/C=C\CO)nc(-c3ccccc3)c(=O)n2n1 ; result: 950 µM
CCCc1nc2n(n1)C(c1ccc(OC)cc1)CC(=O)N2 ; result: >50 µg/mL
C/C(=N\NC(=O)c1ccncc1)c1cccc(CN2CCCCC2)c1O ; result: >17.73 µM
Cc1c(CN2CCSCC2)cc(-c2ccc(F)cc2)n1-c1ccc(F)cc1 ; result: 8 µg/mL
COc1ccc(C)c(NCc2cnc3nc(N)nc(N)c3c2C)c1 ; result: 461 µg/mL
CCCCN(CCCC)Cc1cccc(/C(C)=N/NC(=O)c2ccncc2)c1O ; result: >15.76 µM
O=C(O)c1c(=O)c2cc([N+](=O)[O-])c(N3CCC4(CC3)OCCO4)nc2n2c1sc1ccccc12 ; result: >130 µM
Brc1ccc(Cn2ccc3nc(-c4ccccc4Br)nc-3c2)cc1 ; result: >42 µg/mL
Nc1nc2c(ncn2C[C@H]2CC[C@H](P(=O)(O)O)O2)c(=O)[nH]1 ; result: >100 µg/mL
COc1cc(NCc2cnc3nc(N)nc(N)c3c2C)cc(OC)c1 ; result: 40.6 µg/mL
Nc1ccn([C@H]2O[C@@H](CO)[C@H](O)[C@H]2F)c(=O)n1 ; result: 15.1 µM
COc1ccc2[nH]c3c(c2c1)CCN1OCSCC(N)[C@@H]31 ; result: ≥1 µg/mL
COC1=C(OC)C(=O)C([C@H]2COc3c(cc(OC)c(OC)c3OC)C2)=CC1=O ; result: >50 µg/mL
O=c1c(-c2ccccc2)nn(COCCO)c2ncnn12 ; result: 500 µM
Cc1c(CN2CCSCC2)cc(-c2ccccc2)n1-c1ccc(F)cc1 ; result: 8 µg/mL
CN[C@@H]1[C@H](O[C@@H]2OC[C@@H](O)[C@H](O)[C@H]2O)[C@@H](O)[C@H](O[C@H]2c3cc(C)c(C(=O)N[C@H](C)C(=O)O)c(O)c3-c3c(cc4c(c3O)C(=O)c3cc(OC)cc(O)c3C4=O)[C@@H]2O)O[C@@H]1C ; result: >100 µg/mL
CSc1nc2n(CCO)nc(-c3ccccc3)c(=O)n2n1 ; result: >500 µM
CCc1nc2cc(C)ccn2c1C(=O)NCc1ccc(S(F)(F)(F)(F)F)cc1 ; result: >32 µM
Cc1nc2n(CCCCO)cc(-c3ccccc3)c(=O)n2n1 ; result: >930 µM
C/C(=N\NC(=O)c1ccncc1)c1cccc(CN2CCCC2)c1O ; result: >18.47 µM
O=C(O)c1c(=O)c2cc([N+](=O)[O-])c(N3CCC(n4c(=O)[nH]c5cc(Cl)ccc54)CC3)nc2n2c1sc1ccccc12 ; result: 106 µM
Nc1nc2c(ncn2C[C@H]2CS[C@H](P(=O)(O)O)O2)c(=O)[nH]1 ; result: >100 µg/mL
C/C(=N\NC(=O)c1ccncc1)c1cccc(CN2CCN(c3ccc(F)cc3)CC2)c1O ; result: >13.97 µM
O=C(Nc1ccc(N2CCSCC2)cc1)c1ccc(-c2ccccc2)cc1 ; result: 64 µg/mL
C/C(=N\NC(=O)c1ccncc1)c1cccc(CN(c2ccccc2)c2ccccc2)c1O ; result: >14.32 µM
CCCCCc1nc2n(n1)C(c1ccccc1)CC(=O)N2 ; result: >50 µg/mL

For reference, 8 entries again:

smiles,result
CCn1cc(C(=O)O)c(=O)c2cc(F)c(N3CCN(CN4C(=O)/C(=N\c5ncc(Cc6cc(OC)c(OC)c(OC)c6)c(N)n5)c5cc(Cl)ccc54)C(C)C3)c(F)c21,>10 µg/mL
COc1ccc(C)cc1NCc1cnc2nc(N)nc(N)c2c1C,471 µg/mL
COC1=C(OC)C(=O)C([C@H]2COc3c(cc(OC)c(OC)c3OC)C2)=CC1=O,>50 µg/mL
O=C(O)c1c(=O)c2cc([N+](=O)[O-])c(N3CCC(n4c(=O)[nH]c5cc(Cl)ccc54)CC3)nc2n2c1sc1ccccc12,106 µM
CCCc1nc2n(n1)C(c1ccc(OC)cc1)CC(=O)N2,>50 µg/mL
CCCCN(CCCC)Cc1cccc(/C(C)=N/NC(=O)c2ccncc2)c1O,>15.76 µM
NC1CCCON2CCc3c([nH]c4ccccc34)[C@H]12,>400 µg/mL
O=C(O)c1c(=O)c2cc([N+](=O)[O-])c(N3CCC4(CC3)OCCO4)nc2n2c1sc1ccccc12,>130 µM

Neighbouring rows are from separate reports.